A mixed list of measured activities; the numbers were collected in NIAID ChemDB.

All rows: tests in culture; agent: Rhinovirus

ECn is the concentration giving n% inhibition of infection, replication or growth.

structure,cell line,read by,strain or isolate,measure,value
CCOC(=O)c1ccc(OCCC2CCN(c3ccc(C)nn3)CC2)cc1,KB,neutral red,FO2-2513 (ICAM-1 receptor group 69),EC50,0.136 µM
CSc1nsc(-c2ccc(OCCOc3ccccc3)cc2)c1C#N,HELA-OHIO,cytopathic effect,Serotype 85 (group B),EC50,>20 µM
CN(C)c1nc(C(F)(F)F)nc2c1ncn2Cc1ccc(F)cc1,M-HELA,plaque count,Serotype 3,EC50,>8 µM
CS(=O)(=O)c1ccc(Cc2ccc(Cl)c(Cl)c2)nc1,HeLa,cytopathic effect,TYPE 44,EC50,5 µg/mL
CCOC(=O)c1ccc(OCCOc2ccc(-c3snc(SC)c3C#N)cc2)cc1,HELA-OHIO,cytopathic effect,Serotype 39 (group B),EC50,>2 µM
COCc1cc(CCCOc2c(Cl)cc(-c3noc(C)n3)cc2Cl)on1,HeLa,cytopathic effect,Serotype 25,EC50,0.022 µg/mL
CCOC(=O)c1ccc(OCCCOc2ccc(-c3snc(SC)c3C#N)cc2)cc1,HELA-OHIO,cytopathic effect,Serotype 45 (group A),EC50,>2 µM
Cc1cc(CCCCCOc2c(Cl)cc(C3=NCCO3)cc2Cl)on1,HeLa,plaque count,TYPE 49,EC50,0.048 µg/mL
CCOC(=O)/C=C/[C@H](C[C@@H]1CCNC1=O)NC(=O)[C@@H](CC(=O)[C@@H](NC(=O)c1cc(C)on1)C(C)C)Cc1ccc(F)cc1,OHIO HELA-I,cytopathic effect / visual reading,Isolate 5,EC50,0.03 µg/mL
CC(C)Oc1ccc(Cn2cnc3c(N(C)C)nc(C(F)(F)F)nc32)cc1,M-HELA,plaque count,Serotype 13,EC50,>8 µM
CSc1nsc(-c2ccc(OC(C)(C)C)cc2)c1C#N,HELA-OHIO,cytopathic effect,Serotype 51 (group B),EC50,>40 µM
Cc1ccc(CCCOc2cc(C)c(-c3noc(C(F)F)n3)c(C)c2)nn1,HeLa,cytopathic effect,serotypes 3 4 5 9 16 18 38 66 75 67,EC50,0.05 µg/mL
Cc1c(-c2ccccc2)n(-c2cccc(F)c2)c2ccc(C(C)C)cc2c1=O,HELA-OHIO,cytopathic effect,39/209,EC50,0.012 µg/mL
CN(C)c1nc(C(F)(F)F)nc2c1ncn2Cc1ccc(Cl)c(Cl)c1,M-HELA,plaque count,Serotype 21,EC50,>8 µM
COCc1ccc(CCCOc2cc(C)c(-c3noc(C(F)(F)F)n3)c(C)c2)nn1,HeLa,cytopathic effect,serotypes 3 4 5 9 16 18 38 66 75 67,EC80,0.14 µg/mL
CCc1nc(-c2cc(C)c(OCCCc3cc(COC)no3)c(C)c2)no1,HeLa,cytopathic effect,Serotype 30,EC50,0.033 µg/mL
Cc1ccc(Cn2cnc3c(Nc4ccccc4)nc(C(F)(F)F)nc32)cc1,M-HELA,plaque count,Serotype 1B,EC50,2.3 µM
CN(C)c1nc(C(F)(F)F)nc2c1ncn2Cc1ccc(Cl)c(NC=O)c1,M-HELA,plaque count,Serotype 5,EC50,>8 µM
CS(=O)(=O)c1ccc(Cc2ccc(S(C)(=O)=O)cn2)cc1,HeLa,cytopathic effect,TYPE 2,EC50,>10 µg/mL
CC(=O)c1ccc(CCCOc2cc(C)c(-c3noc(C(F)F)n3)c(C)c2)nn1,HeLa,cytopathic effect,serotypes 3 4 5 9 16 18 38 66 75 67,EC50,0.04 µg/mL
CCS(=O)(=O)c1ccc(NCc2ccc(Cl)cc2)nc1C#N,HeLa,cytopathic effect,TYPE 64,EC50,6.3 µg/mL
CSc1nsc(-c2ccc(OCCCCOc3ccccc3)cc2)c1C#N,HELA-OHIO,cytopathic effect,Serotype 39 (group B),EC50,3 µM
CN(C)c1nc(C(F)(F)F)nc2c1ncn2Cc1ccc(Cl)cc1Cl,M-HELA,plaque count,Serotype 13,EC50,>8 µM
CC(=O)Nc1ccc(Cc2ccc(S(C)(=O)=O)cn2)cc1,HeLa,cytopathic effect,TYPE 1A,EC50,>10 µg/mL
Cc1cc(OCCCc2ccc(Cl)nn2)cc(C)c1-c1noc(C(F)(F)F)n1,HeLa,cytopathic effect,serotypes 3 4 5 9 16 18 38 66 75 67,EC80,0.67 µg/mL
CCn1c2c(c(=O)c3cc(C(C)C)ccc31)Cc1ccccc1-2,HELA-OHIO,cytopathic effect,36/342H,EC50,0.3 µg/mL
CSc1nsc(-c2ccc(OCc3ccccc3)cc2)c1C#N,HELA-OHIO,cytopathic effect,Serotype 89 (group B),EC50,2 µM
CCOc1cc(CCCOc2c(C)cc(-c3noc(C)n3)cc2C)on1,HeLa,cytopathic effect,Serotype 30,EC50,0.047 µg/mL
Fc1cccc(Cn2cnc3c(Nc4cccc(F)c4)nc(C(F)(F)F)nc32)c1,M-HELA,plaque count,Serotype 45,EC50,4.1 µM
CCS(=O)(=O)c1ccc(Cc2ccc(Cl)c(Cl)c2)nc1C(N)=O,HeLa,cytopathic effect,TYPE 2,EC50,2.5 µg/mL
CSc1nsc(-c2ccc(OCCCOc3ccc(C#N)cc3)cc2)c1C#N,HELA-OHIO,cytopathic effect,Serotype 85 (group B),EC50,>2 µM
Cc1ccc(Cn2cnc3c(N(C)C)nc(C(F)(F)F)nc32)cc1,M-HELA,plaque count,Serotype 1B,EC50,0.03 µM
CS(=O)(=O)c1ccc(NCc2ccc(Cl)c(Cl)c2)nc1,HeLa,cytopathic effect,TYPE 1A,EC50,2.5 µg/mL
CSc1nsc(-c2ccc(O)cc2)c1C#N,HELA-OHIO,cytopathic effect,Serotype 29 (group B),EC50,>10 µM
Cc1c(-c2ccccc2)n(-c2ccc(F)cc2)c2ccc(C(C)C)cc2c1=O,HELA-OHIO,cytopathic effect,14/1059,EC50,>2 µg/mL

The last 4 rows once more:

structure | cell line | read by | strain or isolate | measure | value
Cc1ccc(Cn2cnc3c(N(C)C)nc(C(F)(F)F)nc32)cc1 | M-HELA | plaque count | Serotype 1B | EC50 | 0.03 µM
CS(=O)(=O)c1ccc(NCc2ccc(Cl)c(Cl)c2)nc1 | HeLa | cytopathic effect | TYPE 1A | EC50 | 2.5 µg/mL
CSc1nsc(-c2ccc(O)cc2)c1C#N | HELA-OHIO | cytopathic effect | Serotype 29 (group B) | EC50 | >10 µM
Cc1c(-c2ccccc2)n(-c2ccc(F)cc2)c2ccc(C(C)C)cc2c1=O | HELA-OHIO | cytopathic effect | 14/1059 | EC50 | >2 µg/mL

Neighbouring rows are from separate reports.